## PSTVd loop 6 mutant pool in Nicotiana benthamiana

Values reported by Wu et al. 2024 (doi:10.1371/journal.ppat.1012142).

The pool varies loop 6 of the PSTVd intermediate strain in the pattern UNNNCGNNNG; wild type is UGACCGCGAG (upper and lower strand joined, each 5' to 3', the first 5 letters being the upper strand, closing pairs included).

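A pool of all variants was put on leaves of three Nicotiana benthamiana plants. Samples came from the inoculated region at 5 days, the leaf margin at 10 and upper systemic leaves at 12.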

Values are reads per thousand in the sample; higher means more abundant, 0 means not found. Each value is the mean of three plants. "Pool" is the share in the plasmid pool used as inoculum, on the same scale. The inoculated region was read from the minus strand, the other sites from the plus strand. IR is the inoculated region, LM the leaf margin, Sys the systemic leaves. Samples held 36,220 to 57,551 reads, so the smallest values rest on one or two reads.

- UUAGCGCAGG (pool 0.275): IR 0.0531; LM 0.0169; Sys 0
- UAACCUACUA (pool 0.0131): IR 0; LM 0; Sys 0
- UGUUCGUUGG (pool 0.301): IR 0.0826; LM 0; Sys 0
- UGAACGCUUG (pool 0.327): IR 0.138; LM 0.0169; Sys 0.00673
- UGCGCGCACG (pool 0.131): IR 0.136; LM 0; Sys 0
- UGCGCGGUUG (pool 0.222): IR 0.0950; LM 0; Sys 0
- UGUACGCGUG (pool 0.196): IR 0.101; LM 0.00773; Sys 0
- UACCCGCGCG (pool 0.170): IR 0.0840; LM 0.00920; Sys 0
- UUGGCGAUCG (pool 0.431): IR 0.0958; LM 0.00773; Sys 0.0203
- UCGGCGCAAG (pool 0.131): IR 0.0961; LM 0.0155; Sys 0
- UGUACCAACG (pool 0.0131): IR 0; LM 0; Sys 0
- UCCGCGUGAG (pool 0.196): IR 0.121; LM 0.0184; Sys 0
- UCGUCGCCGG (pool 0.196): IR 0.0541; LM 0.0169; Sys 0
- UGCACGUCUG (pool 0.484): IR 0.0831; LM 0.00920; Sys 0.00599
- UAUCCGGGGG (pool 0.131): IR 0.125; LM 0.00773; Sys 0
- UCUUCGCGCG (pool 0.183): IR 0.102; LM 0; Sys 0
- UCUCCGAGUG (pool 0.157): IR 0.0773; LM 0.0155; Sys 0
- UUGACGCUCG (pool 0.248): IR 0.101; LM 0; Sys 0
- UAACCGUUAG (pool 0.301): IR 0.660; LM 0.0491; Sys 0.0196
- CCUCGGCAUG (pool 0.0131): IR 0; LM 0; Sys 0
- UAUCCGGAAG (pool 0.105): IR 0.0596; LM 0; Sys 0
- UUGUCGGCCG (pool 0.288): IR 0.0770; LM 0.00773; Sys 0
- UUGGCGCGCG (pool 0.353): IR 0.125; LM 0.00773; Sys 0
- UGGUCGGCUG (pool 0.353): IR 0.101; LM 0.00920; Sys 0
- UCAUCGAUAG (pool 0.222): IR 0.0945; LM 0.0866; Sys 0

Excerpt, the final 2 entries:

{"sequence": "UGGUCGGCUG", "pool": "0.353", "IR": 0.101, "LM": 0.00920, "Sys": 0}
{"sequence": "UCAUCGAUAG", "pool": "0.222", "IR": 0.0945, "LM": 0.0866, "Sys": 0}

The authors trace changes outside the varied positions to PCR and sequencing errors or to mutation in the plant; presence does not show that a variant is infectious alone. Wild type was 20.7 per thousand in the pool and the most common sequence in every sample (inoculated region 195, 198, 203; leaf margin 629, 591, 734; systemic leaves 942, 870, 868).